Results of unrelated studies side by side (data: NIAID ChemDB).

Common to all: growth or infection tests; species: Candida albicans

MIC50, MIC90 and the like: level of inhibition, or share of isolates inhibited. An empty or dashed field is not shown. Neighbouring rows are from separate reports.

structure | strain or isolate | endpoint | method | value
C=CCNC(=S)Nc1cccc(S(=O)(=O)Nc2ccc3c(c2)Sc2ccccc2O3)c1 | C316 | MIC |  | 1.4 µg/mL
C[C@H]1[C@H](O)[C@@H](C)/C=C/C=C/C=C/C=C/C=C/C=C/C=C/[C@H](O[C@@H]2O[C@H](C)[C@@H](O)[C@H](N)[C@@H]2O)C[C@@H]2O[C@](O)(C[C@@H](O)C[C@@H](O)CC[C@H](O)[C@@H](O)C[C@@H](O)CC(=O)O[C@H]1C)C[C@H](O)[C@H]2C(=O)O | ATCC 90028 | MIC |  | 5 µg/mL
CO[C@H]1C[C@@H]2CC[C@@H](C)[C@@](O)(O2)C(=O)C(=O)N2CCCC[C@H]2C(=O)O[C@H]([C@H](C)C[C@@H]2CC[C@@H](C(=O)ON(C)OC)[C@H](OC)C2)CC(=O)[C@H](C)/C=C(\C)[C@@H](O)[C@@H](OC)C(=O)[C@H](C)C[C@H](C)CCCC/C=C/1C | 38247 | MIC |  | 50 µg/mL
Cc1c(O)cccc1C(=O)N[C@@H](CSc1ccccc1)[C@H](O)CN1C[C@H]2CCCC[C@H]2C[C@H]1C(=O)NC(C)(C)C | I87A | MIC |  | >64 µg/mL
Brc1cc(Br)c2ncnc(NCCNc3nc(NC4CC4)nc(N4CCN(c5ncccn5)CC4)n3)c2c1 | MTCC 183 | MIC | agar | 25 µg/mL
Cc1cc(C)[n+](-c2cccc(S(=O)(=O)Nc3ccc4c(c3)Sc3ccccc3O4)c2)c(C)c1 | C316 | MIC |  | 15 µg/mL
O=C(Nc1nc2ccc(NC(=O)[C@@H]3CCC[C@H](NCc4ccc5ccccc5c4)C3)cc2s1)C1CCCC1 | IFM 47601 (B59630) | MIC |  | 3.13 µM
CO[C@@H]1C[C@H](C[C@@H](C)[C@@H]2CC(=O)[C@H](C)/C=C(\C)[C@@H](O)[C@@H](OC)C(=O)[C@H](C)C[C@H](C)/C=C/C=C/C=C(\C)[C@H](N(O)C(=O)N(C)C)C[C@@H]3CC[C@@H](C)[C@@](O)(O3)C(=O)C(=O)N3CCCC[C@H]3C(=O)O2)CC[C@H]1C(=O)ON(C)O | 442 | MIC |  | 100 µg/mL
Brc1cc(Br)c2ncnc(NCCNc3nc(NC4CC4)nc(N4CCN(C(c5ccccc5)c5ccccc5)CC4)n3)c2c1 | MTCC 183 | MIC | agar | 50 µg/mL
C[C@H]1[C@H](O)[C@@H](C)/C=C/C=C/C=C/C=C/C=C/C=C/C=C/[C@H](O[C@@H]2O[C@H](C)[C@@H](O)[C@H](N)[C@@H]2O)C[C@@H]2O[C@](O)(C[C@@H](O)C[C@@H](O)CC[C@H](O)[C@@H](O)C[C@@H](O)CC(=O)O[C@H]1C)C[C@H](O)[C@H]2C(=O)O | ATCC 90028 | MIC100 | broth dilution | 0.5 µM
CCCCCCCCCCCCCCCCCC(=O)NC1CC(O)C(O)NC(=O)C2C(O)C(C)CN2C(=O)C(C(C)O)NC(=O)C(C(O)C(O)c2ccc(O)cc2)NC(=O)C2CC(O)CN2C(=O)C(C(C)O)NC1=O | MY1783 | MIC |  | 1 µg/mL
C=CCSS(=O)CC=C | Clinical Isolate 3151 | MIC90 | broth dilution | 3.13 µg/mL
CO/N=C1\C2CCCC1(C)C(c1cccc(OC)c1)NC2c1cccc(OC)c1 |  | MIC90 |  | >128 µg/mL
O=S(=O)(Nc1ccc2c(c1)Sc1ccccc1O2)c1ccc(Br)cc1 | C316 | MIC |  | 8 µg/mL
COc1ccc(-c2nnc(Nc3nc(O)c(C4=c5cc(C)ccc5=NC4=O)s3)o2)cc1 | ATCC 10231 | MIC |  | 16 µg/mL
COc1ccc(C[C@H](N)C(=O)N[C@H]2[C@@H](O)[C@H](n3cnc4c(N)ncnc43)O[C@@H]2C(=O)O)cc1 | FP-620 | MIC |  | 0.2 µg/mL
COc1ccc(-c2nnc(Nc3nc(O)c(C4=c5cc(F)ccc5=NC4=O)s3)o2)cc1 | ATCC 10231 | MIC |  | 16 µg/mL
Clc1nc(NC2CC2)nc(N2CCN(c3ccccc3)CC2)n1 | MTCC 183 | MIC | agar | 50 µg/mL
CC(=O)Nc1ccc(S(=O)(=O)Nc2ccc3c(c2)Sc2ccccc2O3)cc1 | C316 | MIC |  | 7 µg/mL
Cc1ccc(NC(=O)CCN2C(=O)S/C(=C\c3ccc(O)c(O)c3O)C2=O)cc1 |  | MIC |  | 50 µg/mL
COc1ccc(-c2nnc(Nc3nc(O)c(C4=c5ccccc5=NC4=O)s3)o2)cc1 | ATCC 10231 | MIC |  | 16 µg/mL
O=C(Nc1cccc(S(=O)(=O)Nc2ccc3c(c2)Sc2ccccc2O3)c1)Nc1ccc(Cl)c(Cl)c1 | C316 | MIC |  | 0.5 µg/mL
Cc1ccc(NC(=O)CCN2C(=O)S/C(=C\c3ccccc3F)C2=O)c(Cl)c1 |  | MIC |  | 12.5 µg/mL
COc1cc(O)c2c(c1)C(=O)c1c(cc3c(c1O)-c1c(cc(C)c(C(=O)NCC(=O)O)c1O)[C@H](OC1OC(C)C(N(C)C)C(OC4OCC(O)C(O)C4O)C1O)[C@H]3O)C2=O | A9540 | MIC |  | 3.1 µg/mL
CO[C@@H]1C[C@H](C[C@@H](C)[C@@H]2CC(=O)[C@H](C)/C=C(\C)[C@@H](O)[C@@H](OC)C(=O)[C@H](C)C[C@H](C)/C=C/C=C/C=C(\C)[C@H](N(OC)C(=O)N(C)C)C[C@@H]3CC[C@@H](C)[C@@](O)(O3)C(=O)C(=O)N3CCCC[C@H]3C(=O)O2)CC[C@H]1C(=O)ON(C)O | 10231 | MIC |  | >100 µg/mL
Cc1ccc(NC(=O)CCN2C(=O)S/C(=C\c3ccccc3)C2=O)c(Cl)c1 |  | MIC |  | 25 µg/mL
Clc1cccc(N2CCN(c3nc(Cl)nc(NC4CC4)n3)CC2)c1 | MTCC 183 | MIC | agar | 100 µg/mL
Cc1cc(C)cc(/C=C2\SC(=O)N(CCC(=O)Nc3ccc(C)cc3Cl)C2=O)c1 |  | MIC |  | >100 µg/mL
CN1C(=O)/C(=C2\S/C(=N/c3nnc(-c4ccccc4)o3)NC2=O)c2ccccc21 | ATCC 10231 | MIC |  | 16 µg/mL
CC(C)(O)c1cn(-c2ccc(Cl)cc2)nn1 | URM 4385 | MIC | broth dilution | 128 µg/mL
O=C(CCN1C(=O)S/C(=C\c2cccc(O)c2)C1=O)Nc1cccc(O)c1 |  | MIC |  | 6.25 µg/mL
CN1C(=O)/C(=C2\S/C(=N/c3nnc(-c4ccc(Cl)cc4)o3)NC2=O)c2ccccc21 | ATCC 10231 | MIC |  | 16 µg/mL
CC[C@@H]([C@H](C)O)n1ncn(-c2ccc(N3CCN(c4ccc(OC[C@@H]5CO[C@@](Cn6cncn6)(c6ccc(F)cc6F)C5)cc4)CC3)cc2)c1=O | 84 isolates | MIC50 |  | 0.015 µg/mL
CCCC(O)C/C=C\C=C\C(=O)OC[C@H]1O[C@@H](O[C@@H]2[C@H](OC(=O)/C=C/C=C/CC(O)/C(C)=C/C=C/CCC(C)CC)[C@@H](O)[C@]3(OCc4cc(O)cc(O)c43)O[C@@H]2CO)[C@H](O)[C@@H](O)[C@H]1O | MY1208 | MIC |  | 2 µg/mL

The first 4 rows once more:

structure,strain or isolate,endpoint,method,value
C=CCNC(=S)Nc1cccc(S(=O)(=O)Nc2ccc3c(c2)Sc2ccccc2O3)c1,C316,MIC,,1.4 µg/mL
C[C@H]1[C@H](O)[C@@H](C)/C=C/C=C/C=C/C=C/C=C/C=C/C=C/[C@H](O[C@@H]2O[C@H](C)[C@@H](O)[C@H](N)[C@@H]2O)C[C@@H]2O[C@](O)(C[C@@H](O)C[C@@H](O)CC[C@H](O)[C@@H](O)C[C@@H](O)CC(=O)O[C@H]1C)C[C@H](O)[C@H]2C(=O)O,ATCC 90028,MIC,,5 µg/mL
CO[C@H]1C[C@@H]2CC[C@@H](C)[C@@](O)(O2)C(=O)C(=O)N2CCCC[C@H]2C(=O)O[C@H]([C@H](C)C[C@@H]2CC[C@@H](C(=O)ON(C)OC)[C@H](OC)C2)CC(=O)[C@H](C)/C=C(\C)[C@@H](O)[C@@H](OC)C(=O)[C@H](C)C[C@H](C)CCCC/C=C/1C,38247,MIC,,50 µg/mL
Cc1c(O)cccc1C(=O)N[C@@H](CSc1ccccc1)[C@H](O)CN1C[C@H]2CCCC[C@H]2C[C@H]1C(=O)NC(C)(C)C,I87A,MIC,,>64 µg/mL